A mixed list of measured activities; the numbers were collected in NIAID ChemDB.

Shared fields: tests in culture; organism: Mycobacterium tuberculosis

Blank or dashed fields: not listed here. Neighbouring rows are from separate reports. MIC50, MIC90 and the like: level of inhibition, or share of isolates inhibited. Fold resistance: result on the changed form divided by that on wild type. ECn: concentration that inhibits the pathogen or its effect by n%. MIC bound: limit read from a one-dose screen. Inhibition is in % at the dose shown (toxicity tests: loss of growth or viability).

smiles,strain or isolate,changes,method,measure,tested at,value
CO[C@@H]1C/C=C\C=C\C[C@H](C)[C@@H](O)C[C@@H](O)[C@H](C)[C@H](O)CC(=O)O[C@H]([C@H](C)[C@H](O)/C=C(\C)CC/C=C/C=C/CC(O)CC(C)CCC(=O)O)C[C@H](O)CCC1,CHUV80045776,katG mutant isoniazid resistant,resazurin / absorbance,MIC,-,1.7 µg/mL
Cc1ccc(NCCN(C)C)c2c(=O)c3cc(O)ccc3oc12,CS-R,-,-,MIC,-,12.5 µg/mL
CC1S/C(=N/N=C2\C(=O)Nc3ccccc32)N(C)C1=O,H37Rv,-,-,MIC,-,>12.5 µg/mL
COc1ccccc1CCNCCNCCCCc1ccccc1,-,-,-,MIC,-,25 µM
CCCCS(=O)(=O)Nc1ccc2[nH]c(C(=O)NC3CC(F)C3)c(C)c2c1,H37Rv,-,resazurin,MIC90,-,3.1 µM
CCc1ccc([C@H]2C[C@@H](C(F)(F)F)n3ncc(C(=O)NCc4ccc(OC)cc4)c3N2)cc1,H37Rv,MmpL3: Ser591Ile,fluorescence,fold resistance,-,>8
O=c1oc(=O)c2ccccc2c2ccccc12,H37Rv,-,BACTEC,inhibition,12.5 µg/mL,38%
COc1ccc(C2C(C(=O)Nc3ccc([N+](=O)[O-])cc3)=C(C)NC(C)=C2C(=O)Nc2ccc([N+](=O)[O-])cc2)cc1,H37Rv,-,-,MIC,-,>6.25 µg/mL
CN(C)c1ccc2cc3c(cc2c1)Oc1ccccc1N3.CN(C)c1ccc2cc3c(cc2c1)Oc1ccccc1N3.[Cl][Zn][Cl],H37Rv,-,BACTEC,MIC bound,-,>12.5 µg/mL
CCCCS(=O)(=O)Nc1ccc2[nH]c(C#N)c(C)c2c1,DRM167 8x2,A119T DG167-resistant,resazurin,MIC90,-,>100 µM
CCOC(=O)Nc1cc(NC(c2ccc(Cl)cc2)c2ccc(Cl)cc2)c2c(n1)NCN2,H37Rv,-,-,EC50,-,<12.5 µg/mL
CC1=C(C(=O)Nc2ccc(F)c(Cl)c2)C(c2c3ccccc3cc3ccccc23)C(C(=O)Nc2ccc(F)c(Cl)c2)=C(C)N1,H37Rv,-,-,MIC,-,>6.25 µg/mL
O=C(Nc1ccncc1)c1cccc2nc3ccccc3nc12,H37Rv 27294,-,-,MIC,-,1.56 µg/mL
CCCCS(=O)(=O)Nc1ccc2[nH]c(C(N)=O)c(C)c2c1,DRM167 16x6,I122S DG167-resistant,resazurin,MIC90,-,>100 µM
CC1(C)[C@H]2CC[C@@H](CNCCNCCCCCO)[C@@H]1C2,-,-,-,MIC,-,50 µM
COc1cc(O)c2c(O)c3c(c4c2c1C1(C4)C(C)=CCCC1(C)C)C(O)C1(O)CC(=O)C(C(N)=O)=C(O)C1(O)C3=O,H37Rv,-,BACTEC,inhibition,12.8 µg/mL,0%
O=C(Nc1ccccc1)c1cccc2nc3ccccc3nc12,H37Rv 27294,-,-,MIC,-,3.12 µg/mL
COc1cc(C2C(C(=O)Nc3ccccc3)=C(C)NC(C)=C2C(=O)Nc2ccccc2)cc(OC)c1OC,H37Rv,-,-,MIC,-,>12.5 µg/mL
NC1=C(c2nc(-c3ccccc3)cs2)C(c2ccco2)c2c(c3ccccc3oc2=O)O1,H37Rv,-,BACTEC,inhibition,12.5 µg/mL,-25%
CC(CNCCc1ccccc1F)NC[C@@H]1CC[C@H]2C[C@@H]1C2(C)C,-,-,-,MIC,-,25 µM
NNC(=O)c1cccc2ccccc12,H37Rv,-,BACTEC,MIC,-,≥12.5 µg/mL
CN[C@@H]1[C@H](O[C@H]2[C@H](O[C@H]3[C@H](O)[C@@H](O)[C@H](N=C(N)N)[C@@H](O)[C@@H]3N=C(N)N)O[C@@H](C)[C@]2(O)C=O)O[C@@H](CO)[C@H](O)[C@H]1O,MTB25 (S),-,-,MIC,-,0.3 µg/mL
COC1=C2CC(C)CC(OC)C(O)C(C)/C=C(\C)C(OC(N)=O)C(OC)/C=C\C=C(/C)C(=O)NC(=C(C=NC(C)(C)C)C1=O)C2=O,KM-R,-,-,MIC,-,12.5 µg/mL
C[C@]1(COc2ccc(N3CCC(Oc4ccc(OC(F)(F)F)cc4)CC3)cc2)Cn2cc([N+](=O)[O-])nc2O1,ATCC 35838 (H37RV-R-R),-,-,MIC,-,0.006 µg/mL
NNC(=O)c1ccncc1,Clinical isolate 13 638,-,resazurin / absorbance,MIC,-,0.03 µg/mL
CCOC(=O)Nc1cc(NC(c2ccc(Cl)cc2)c2ccc(Cl)cc2)c([N+](=O)[O-])c(N)n1,H37Rv,-,-,inhibition,12.5 µg/mL,46%
CCCCNC(=O)c1[nH]c2ccc(NS(=O)(=O)CCCC)cc2c1C,H37Rv,-,resazurin,MIC90,-,1.56 µM
CCOC(=O)c1c(C)c(-c2ccccc2)n(CC(=O)N/N=C/c2ccc[nH]2)c1C,H37Rv,-,BACTEC,inhibition,6.25 µg/mL,8%
COc1cc2oc(-c3ccc(O)cc3O)c(CC=C(C)C)c(=O)c2c(O)c1/C=C/C(C)C,INH-r,-,-,MIC,-,>12.5 µg/mL
COc1cnc2ccc(=O)n(CCN3CCC(NCc4cc5c(cn4)OCCO5)CC3)c2c1,ATCC 27294,-,resazurin,MIC,-,0.29 µM
CNC(=S)N=Nc1c(O)[nH]c2ccc(Br)cc12,H37Rv,-,-,MIC,-,>12.5 µg/mL
CCOC(=O)Nc1cc(Cl)c2ncc(-c3ccc(Cl)cc3)nc2n1,H37Rv,-,-,EC50,-,>12.5 µg/mL
CCCc1ccc2oc(-c3ccc(O)c(OC)c3)c(C)c2c1,Clinical isolate 4851,-,resazurin / absorbance,MIC,-,7.8 µg/mL
O=C(CSc1nc2ccc(Cl)cc2c(=O)n1-c1ccccc1)N=Nc1c(O)[nH]c2ccccc12,H37Rv,-,-,inhibition,12 µg/mL,61%
CCOC(=O)Nc1cc(NC(C)C(=O)c2ccccc2)c([N+](=O)[O-])cn1,H37Rv,-,-,EC50,-,>12.5 µg/mL
CCOC(=O)c1cc(-c2ccccc2)n(CCC(=O)NN)c1C,H37Rv,-,BACTEC,inhibition,6.25 µg/mL,0%
NC(=O)c1cnccn1,M6669,-,-,MIC,-,60 µg/mL
CCOC(=O)c1cc(-c2ccccc2)n(CC(=O)N/N=C/c2ccc[nH]2)c1C,H37Rv,-,BACTEC,EC50,-,>6.25 µg/mL
CCN(CC)CCN1c2ccc(OC)cc2Sc2ccc3ccccc3c21,H37Rv,-,BACTEC,MIC bound,-,≤12.5 µg/mL
O=C1CCCN1CCCNCCNCCc1ccccc1F,-,-,-,MIC,-,50 µM
CCOC(=O)c1cc(-c2ccc(OC)cc2)n(CC(=O)NN)c1C,H37Rv,-,BACTEC,EC50,-,>6.25 µg/mL
CC1=C(C(=O)Nc2cc(C)ccc2C)C(c2cccc(Cl)c2)C(C(=O)Nc2cc(C)ccc2C)=C(C)N1,H37Rv,-,-,MIC,-,>6.25 µg/mL
CCCCS(=O)(=O)Nc1ccc2[nH]c(C(=O)N3CCN(C)CC3)c(C)c2c1,H37Rv,-,resazurin,MIC90,-,50 µM
CCOC(=O)Nc1cc(NC(c2ccccc2)c2ccccc2)c([N+](=O)[O-])c(NCC(=O)c2ccc(Cl)cc2)n1,H37Rv,-,-,EC50,-,>12.5 µg/mL
COc1ccccc1NC(=O)C1=C(C)NC(C)=C(C(=O)Nc2ccccc2OC)C1c1cccc(Cl)c1,H37Rv,-,-,MIC,-,>6.25 µg/mL
O=C(CSc1nc(-c2ccccc2)c(-c2ccccc2)[nH]1)N=Nc1c(O)[nH]c2ccc(Br)cc12,H37Rv,-,-,inhibition,12 µg/mL,18%
CCOC(=O)c1c(C)[nH]c(C(=O)NN)c1C,H37Rv,-,BACTEC,EC50,-,>6.25 µg/mL
O=C(Nc1cccc2ccccc12)c1cccc2nc3ccccc3nc12,H37Rv 27294,-,-,MIC,-,1.56 µg/mL
CCCCCCCCCCCNCCNC1CCCc2ccccc21,-,-,-,MIC,-,25 µM
C=C(C)C1CCC2=CC(CC3(C)OC3C3=CC(C(=O)OC)=C(C1)O3)OC2=O,H37Rv,-,BACTEC,MIC,-,≥12.5 µg/mL
C=CCN=C(N=Nc1c(O)[nH]c2ccc(Br)cc12)SCC(=O)c1ccc(Br)cc1,H37Rv,-,-,MIC,-,12.5 µg/mL
CC(C)c1ccc2c(c1)CC[C@H]1[C@](C)(CNCCNCCc3ccccc3)CCC[C@]21C,-,-,-,MIC,-,12.5 µM
CCOC(=O)c1cc(-c2ccccc2)n(CC(=O)N/N=C/c2ccccc2O)c1C,H37Rv,-,BACTEC,EC50,-,>6.25 µg/mL
COc1cnc2ccc(=O)n(CCN3CCC(NCc4cc(Cl)c(Cl)cn4)CC3)c2c1,ATCC 27294,-,resazurin,MIC,-,≤0.01 µM
CCCCN=C(N=Nc1c(O)[nH]c2ccc(Br)cc12)SCC(=O)c1ccc(Br)cc1,H37Rv,-,-,inhibition,12 µg/mL,99%
O=C(Nc1cccc(Cl)c1)c1cccc2nc3ccccc3nc12,H37Rv 27294,-,-,MIC,-,0.39 µg/mL
NC(=O)c1ccc[n+](Cc2ccccc2C[n+]2cccc(C(N)=O)c2)c1.[Br-].[Br-],H37Rv,-,BACTEC,MIC bound,-,>12.5 µg/mL
CCOC(=O)c1c(C)c(-c2ccccc2)n(CC(=O)N/N=C/c2ccc(O)c(OCC)c2)c1C,H37Rv,-,BACTEC,inhibition,6.25 µg/mL,0%
COc1cc([C@H]2OC[C@H]3[C@@H]2CO[C@@H]3c2ccc(O)c(OC)c2)ccc1O,H37Rv,-,BACTEC,MIC,-,≥128 µg/mL
Fc1ccc(CCNCCNCCC2=CCCCC2)cc1,-,-,-,MIC,-,12.5 µM
COc1ccccc1C1C(C(=O)Nc2ccccc2)=C(C)NC(C)=C1C(=O)Nc1ccccc1,H37Rv,-,-,MIC,-,>12.5 µg/mL
Cn1c(-c2ccc(Br)cc2)cs/c1=N\N=C1/C(=O)Nc2ccccc21.O,H37Rv,-,-,MIC,-,>12.5 µg/mL
CCN(CC)Cc1cc(Nc2cc(Cl)c3ccc(N(C)C)cc3n2)ccc1O.Cl.Cl.Cl,H37Rv,-,BACTEC,MIC bound,-,≤12.5 µg/mL
CCCCn1c(-c2ccc([N+](=O)[O-])cc2)cs/c1=N\N=C1/C(=O)Nc2ccc(Br)cc21,H37Rv,-,-,EC50,-,<12 µg/mL
C=C1[C@@H](C)[C@H]2[C@H](Cc3ccccc3)NC(=O)[C@]23[C@H](OC(C)=O)/C=C/[C@@](C)(O)C(=O)[C@@H](C)C/C=C/[C@H]3[C@@H]1O,H37Rv,-,BACTEC,MIC bound,-,>12.5 µg/mL
CO[C@H]1/C=C/O[C@@]2(C)Oc3c(C)c(O)c4c(O)c(c(/C=N/N5CCN(C)CC5)c(O)c4c3C2=O)NC(=O)/C(C)=C\C=C\[C@H](C)[C@H](O)[C@@H](C)[C@@H](O)[C@@H](C)[C@H](OC(C)=O)[C@@H]1C,H37Rv 27294,-,-,MIC,-,0.78 µg/mL
NNC(=O)CCC(NC(=O)OCc1ccccc1)C(=O)NN,H37Rv,-,BACTEC,MIC bound,-,>12.5 µg/mL
Cc1cccc(OCC(=O)N=Nc2c(O)[nH]c3ccccc23)c1,H37Rv,-,-,MIC,-,>12.5 µg/mL
O=C(O)COc1ccc(C(=O)/C(SS/C(C(=O)c2ccc(OCC(=O)O)c(Cl)c2Cl)=C2\C=C(c3ccc(Br)cc3)SS2)=C2/C=C(c3ccc(Br)cc3)SS2)c(Cl)c1Cl,H37Rv,-,BACTEC,MIC,-,≥12.5 µg/mL
NC[C@@H]1O[C@H](O[C@H]2[C@@H](O)[C@H](O[C@@H]3[C@@H](O)[C@H](N)C[C@H](N)[C@H]3O[C@H]3O[C@H](CO)[C@@H](O)[C@H](O)[C@H]3N)O[C@@H]2CO)[C@H](N)[C@@H](O)[C@@H]1O,MTB13 (INH-R),-,-,MIC,-,0.75 µg/mL
CC(C)C1OC(=O)/C=C/C=C/C=C/C=C/C=C/CC(O)C(C)C(O)CC(O)CC(O)CC(O)CC(O)CC(O)CC(O)/C=C/C1C,H37Rv,-,BACTEC,inhibition,12.5 µg/mL,14%
Cc1c[nH]c(C)c1C(=O)N/N=C/c1ccc([N+](=O)[O-])o1,H37Rv,-,BACTEC,inhibition,6.25 µg/mL,0%
O=C1COc2ccccc2N1,H37Rv,-,BACTEC,MIC bound,-,>12.5 µg/mL
CCCCCCCCCCCNCCNCCF,-,-,-,MIC,-,25 µM
O=C(Nc1ncc([N+](=O)[O-])s1)c1cccnc1,INH-r,-,-,MIC,-,12.5 µg/mL
CCCCNC(=O)Oc1ccc(C2=Nc3c(cc(NC(=O)OCC)nc3N)N[C@H]2C)cc1,H37Rv,-,-,EC50,-,>12.5 µg/mL
CO[C@@]12[C@H](COC(N)=O)C3=C(C(=O)C(C)=C(N)C3=O)N1C[C@H]1[C@@H]2N1C(=O)/C=C/c1ccccc1,INH-r,-,-,MIC,-,0.2 µg/mL
C/C=C/c1ccc2oc(-c3ccc(O)c(OC)c3)c(C)c2c1,Clinical isolate 17,Isoniazid-resistant,resazurin / absorbance,MIC,-,3.9 µg/mL